Pooled drug test results. Numbers come from NIAID ChemDB, via PubChem.

Shared fields: whole-cell or culture tests; agent: Candida albicans

Neighbouring rows are from separate reports.

SMILES	strain	measure	read by	value
CC1=C(N2CCC3CCNC32)C(F)=CN2C(=O)C(C(=O)O)=CC(C3CC3)C12	CCH442	MIC	-	>100 µg/mL
Cc1c(N2CCC(N(C)C)C2)c(F)cn2c(=O)c(C(=O)O)cc(C3CC3)c12	CCH442	MIC	-	>100 µg/mL
CC(=O)N1CCN(c2ccc(OC[C@H]3CO[C@](Cn4ccnc4)(c4ccc(Cl)cc4Cl)O3)cc2)CC1	Isogenic isolate 3 MDR1 (25X)	MIC	-	0.004 µg/mL
Cc1c(N2CCC(CN)CC2)c(F)cn2c(=O)c(C(=O)O)cc(C3CC3)c12.Cl	CCH442	MIC	-	>100 µg/mL
CN1CCC2=C(CCCC2CCc2c(Cl)cccc2Cl)C1	1208E	MIC	-	125 µg/mL
Cc1c(N2CCC(CN)CC2)c(F)cn2c(=O)c(C(=O)O)cc(C3CC3)c12	CCH442	MIC	-	>100 µg/mL
CN1CCC2=C(CCCC2(CCc2ccc(Br)cc2)CCc2ccc(Br)cc2)C1	C316	MIC	-	125 µg/mL
Cc1c(N2C[C@@H](N)[C@@H](F)C2)c(F)cn2c(=O)c(C(=O)O)cc(C3CC3)c12.Cl	CCH442	MIC	-	>100 µg/mL
CSCC[C@H](N)[C@@H]1CCN(c2c(F)cn3c(=O)c(C(=O)O)cc(C4CC4)c3c2C)C1	CCH442	MIC	-	>100 µg/mL
CN1CCC2=C(CCCC2CCc2ccc(Br)cc2)C1	1208E	MIC	-	16 µg/mL
C[C@H](Cc1ccc(O)c(O)c1)[C@@H](C)Cc1ccc(O)c(O)c1	CCC 127-2000	MIC50	broth dilution	125 µg/mL
Cc1c(N2CCC(C)(N)CC2)c(F)cn2c(=O)c(C(=O)O)cc(C3CC3)c12.Cl	CCH442	MIC	-	>100 µg/mL
Clc1cccc(Cl)c1CCC1CCCc2cnccc21	C316	MIC	-	>125 µg/mL
Cc1c(N2CCCC(CN)C2)c(F)cn2c(=O)c(C(=O)O)cc(C3CC3)c12.Cl	CCH442	MIC	-	>100 µg/mL
CNCC1COC2(CCN(c3c(F)cn4c(=O)c(C(=O)O)cc(C5CC5)c4c3C)CC2)O1.Cl	CCH442	MIC	-	>100 µg/mL
Cc1c(N2CCC(CN)C2)c(F)cn2c(=O)c(C(=O)O)cc(C3CC3)c12.Cl	CCH442	MIC	-	>100 µg/mL
C=CCc1ccc(O)c(-c2ccc(O)c(CC=C)c2)c1	YL 339	MIC	broth dilution	64 µg/mL
Cc1c(N2CCC(N)CC2)c(F)cn2c(=O)c(C(=O)O)cc(C3CC3)c12	CCH442	MIC	-	>100 µg/mL
CNC1CN(c2c(F)cn3c(=O)c(C(=O)O)cc(C4CC4)c3c2C)CC1O.Cl	CCH442	MIC	-	>100 µg/mL

For reference, 2 entries again:

SMILES,strain,measure,read by,value
Cc1c(N2CCC(C)(N)CC2)c(F)cn2c(=O)c(C(=O)O)cc(C3CC3)c12.Cl,CCH442,MIC,-,>100 µg/mL
CNCC1COC2(CCN(c3c(F)cn4c(=O)c(C(=O)O)cc(C5CC5)c4c3C)CC2)O1.Cl,CCH442,MIC,-,>100 µg/mL

MIC50, MIC90 and the like: level of inhibition, or share of isolates inhibited. Blank or dashed fields: not listed here.